# Tested on: B. cepacia biofilm
# Conditions: sessile B. cepacia on FOC surface; biocide recirculated at 9.8 mL/min for 5-6 hr; 2 ppm ozone; 24 and 48 ppm iodine; chlorine concentration only in FIG. 11 legend; means of three trials
substance,measurement,value
Chlorine,"biocide efficacy (rank order, from cell number/3000 μm^2 and total cell area vs elapsed time)","greatest for ozone, followed by chlorine"
